By UniProt entry, the sequences of proteins in these tests, tags left out. Residues count along the entry.
UniProt Q8CWJ5, 132-378 limits assumed: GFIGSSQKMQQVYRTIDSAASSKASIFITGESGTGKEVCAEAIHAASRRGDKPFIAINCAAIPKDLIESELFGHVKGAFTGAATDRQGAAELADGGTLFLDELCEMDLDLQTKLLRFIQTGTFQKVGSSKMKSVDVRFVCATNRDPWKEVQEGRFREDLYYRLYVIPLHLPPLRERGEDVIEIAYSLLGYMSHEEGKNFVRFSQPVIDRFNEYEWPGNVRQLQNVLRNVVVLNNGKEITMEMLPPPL

In article PMC4878744, “Structure, Regulation, and Inhibition of the Quorum-Sensing Signal Integrator LuxO” (PLoS Biology, 2016):

Molecular target: V. vulnificus LuxO-C (Vibrio vulnificus, UniProt Q8CWJ5)
Assay: NADH-coupled ATPase assay, fit to one-inhibitor-per-oligomer model
Format: biochemical
Details: competitive with ATP; 100 μM LuxO-C, 2 mM ATP, pH 7.4, 23°C, 4% DMSO; K is affinity relative to ATP (dimensionless ratio)

Q: Which “K (Kd^ATP / Kd^inhibitor)” value does the source give for CC(C)(C)COC(=O)CNc1n[nH]c(=O)nc1S here?
A: 268 ± 186
